From PMC7038240 (Antimicrobial Agents and Chemotherapy, 2020)

System: VIM-2 and NDM-1 metallo-β-lactamases
Test: Inhibition of VIM-2 and NDM-1 MBLs (modality, reversibility, range)

## NCCN[C@H]1CC[C@H](CC(=O)N[C@H]2Cc3cccc(C(=O)O)c3OB2O)CC1 [Taniborbactam]
Enzymatic activity fully recovered after rapid jump dilution
  reversibility of inhibition: reversible
steady-state kinetic analysis
  inhibition modality: competitive inhibitor
